Series [1] concerns HepG2. Description: Cytotoxicity against human HepG2 cells incubated for 72 hrs by Hoechst 33342 staining based assay. Conditions: hepg2, 72 h. Type of series: toxicity, cell-based. The method, boiled down:
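HepG2 cells, 2000 per collagen-coated well, treated the following day by pin transfer from a 12-point 1:3 dilution series (1000× DMSO stocks). Puromycin positive control; 0.1% v/v DMSO negative. After 72 h: fixed, Hoechst 33342 nuclear stain, high-content imaging. CC50 fitted per run from duplicate wells; three independent experiments.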

Series [2] relates to Hepatocyte. Description: Cytotoxicity against human primary hepatocytes. Format: toxicity, cell-based. The method in brief:
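Host primary human hepatocytes (18 000 per collagen-coated well) in the P. vivax liver-stage radical-cure cultures. Compound given days 5–7 post-infection from a 12-point 1:3 dilution series; fixed at day 12 and imaged by high-content imaging. 0.1% DMSO negative control. CC50 fitted per run from duplicate wells; two independent experiments.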

Some results are limits rather than exact numbers.

On to `CC1=C[C@H]2O[C@@H]3C[C@@H](O)[C@](C)([C@@]2(CO)CC1)[C@@]31CO1`, for which, in series [1], the CC50 was more than 10 µM and the pCC50 was less than 5. Besides, in series [2], the CC50 was more than 10 µM and the pCC50 was less than 5.

A word on the CC50: it is the concentration giving 50% cytotoxicity. Higher therefore signals lower toxicity to the cells. One may read the pCC50 as −log10 of the CC50, conventionally taken in molar units. High values mean a low CC50, low ones a high CC50.

Source of the values: ChEMBL document CHEMBL5357032, “In Vitro Antimalarial Activity of Trichothecenes against Liver and Blood Stages of Plasmodium Species” (J Nat Prod, 2024).
